Experimental data from ChEMBL document CHEMBL1137608, “Design of a potent reactivator of tabun-inhibited acetylcholinesterase--synthesis and evaluation of (E)-1-(4-carbamoylpyridinium)-4-(4-hydroxyiminomethylpyridinium)-but-2-ene dibromide (K203)” (2007).

Tested on: Rattus norvegicus
Assay: Toxicity in intramuscular dosed rat after 24 hrs
Conditions: in vivo, im

| SMILES | LD50 |
| --- | --- |
| NC(=O)c1cc[n+](CCC[n+]2ccc(/C=N/O)cc2)cc1.[Br-].[Br-] | > 1200 mg/kg |
| NC(=O)c1cc[n+](CCCC[n+]2ccc(/C=N/O)cc2)cc1.[Br-].[Br-] | > 1200 mg/kg |
| NC(=O)c1cc[n+](C/C=C/C[n+]2ccc(/C=N/O)cc2)cc1.[Br-].[Br-] | 326 mg/kg |
